Anti-infective test results gathered from many reports (values: NIAID ChemDB through PubChem).

Shared fields: growth or infection tests; organism: HIV-1; cell line: CEM; read-out: EC50

An empty or dashed field is not shown.

smiles,strain or isolate,changes,method,result
CC(C)=CCOc1cc(NC(=S)c2ccsc2C)ccc1Cl,IIIB,RT-E138K,syncytia,0.01 ± 0.007 µM
CCn1c(=O)c(C)cn([C@@H]2O[C@H](CO[Si](C)(C)C(C)(C)C)C3(OS(=O)(=O)C=C3N)[C@H]2O[Si](C)(C)C(C)(C)C)c1=O,IIIB E-EBU(RT-Y181C),RT-Y181C,syncytia,>50 µg/mL
Cc1cn([C@@H]2O[C@H](CO[Si](C)(C)C(C)(C)C)C3(OS(=O)(=O)C=C3N)[C@H]2O[Si](C)(C)C(C)(C)C)c(=O)n(C)c1=O,IIIB,RT-M184I,p24,0.025 µg/mL
Fc1cccc(F)c1C1SCc2nc3ccccc3n21,TIBO R82150-resistant (RT K103N),RT-K103N,cytopathic effect / MTT,15.6 µM
CCOCn1c(Cc2cc(C)cc(C)c2)c(CC)c(=O)[nH]c1=O,IIIB,RT-C181I,syncytia,0.35 µM
Cc1cn([C@@H]2O[C@H](CO[Si](C)(C)C(C)(C)C)C3(OS(=O)(=O)C=C3N)[C@H]2O[Si](C)(C)C(C)(C)C)c(=O)n(C)c1=O,IIIB BHAP(RT-L100I),RT-L100I,syncytia,0.04 µg/mL
Cc1cn([C@@H]2O[C@H](CO[Si](C)(C)C(C)(C)C)C3(OS(=O)(=O)C=C3N)[C@H]2O[Si](C)(C)C(C)(C)C)c(=O)n(C)c1=O,TIBO-2(RT-K103N),RT-K103N,syncytia,0.23 µM
CCN1C(=O)N(Cc2ccccc2)S(=O)(=O)c2cscc21,,RT-L100I,syncytia,10.2 µM
Cc1c(Sc2ccccc2)n(COCCO)c(=O)[nH]c1=O,IIIB,,syncytia,7.5 µg/mL
CC(C)=CCOc1cc(NC(=S)c2ccoc2C)ccc1Cl,,,cytopathic effect,0.003 µg/mL
CC[C@H]1C(=O)Nc2ccc(F)cc2N1C(=O)OC(C)C,P-1 (RT-K103N Y144F),RT-K103N Y144F,cytopathic effect,0.05 µg/mL
CCNc1cccnc1N1CCN(C(=O)c2cc3cc(OC)ccc3[nH]2)CC1,IIIB-TSAO-m3T(10)(RT-Y181C),RT-Y181C,syncytia,0.08 µg/mL
Cc1ccnc2c1NC(=O)c1cccnc1N2C1CC1,IIIB,,syncytia,0.02 µM
CCn1c(=O)c(C)cn([C@@H]2O[C@H](CO[Si](C)(C)C(C)(C)C)C3(OS(=O)(=O)C=C3N)[C@H]2O[Si](C)(C)C(C)(C)C)c1=O,IIIB nevirapine-resistant (RT Y181C),RT-Y181C,syncytia,>50 µM
CCOCn1c(Sc2ccccc2)c(CC)c(=O)[nH]c1=O,IIIB,,syncytia,0.005 µg/mL
Cc1occc1C(=S)Nc1ccc(Cl)c(/C=N/OC(C)(C)C)c1,IIIB,RT-K103N,p24,≥1 µg/mL
CCOCn1c(Cc2cc(C)cc(C)c2)c(CC)c(=O)[nH]c1=O,IIIB TIBO R82913 STR-2 (RT K103N),RT-K103N,syncytia,0.01 µM
O=c1[nH]cnc2c1ncn2[C@H]1CC[C@@H](CO)O1,IIIB-BHAP)(0.1)(RT-L100I,RT-L100I,syncytia,13 µM
CC(C)=CCN1Cc2cccc3[nH]c(=S)n(c23)C[C@@H]1C,IIIB TIBO R82913 STR-B02 (RT L100I E138K),RT-L100I E138K,syncytia,5 µM
Cc1cn([C@@H]2O[C@H](CO[Si](C)(C)C(C)(C)C)C3(OS(=O)(=O)C=C3N)[C@H]2O[Si](C)(C)C(C)(C)C)c(=O)n(C)c1=O,IIIB,RT-Y181C,syncytia,3.3 µM
CCOCn1c(Cc2cc(C)cc(C)c2)c(CC)c(=O)[nH]c1=O,IIIB E-EBU(RT-Y181C),RT-Y181C,syncytia,1.1 µg/mL
CC(C)=CCN1Cc2cc(Cl)cc3[nH]c(=S)n(c23)C[C@@H]1C,IIIB-Nevirapine(0.1)(RT-Y181C),RT-Y181C,syncytia,7.6 µg/mL
C=C(C)OC(=O)N1c2cc(Cl)ccc2NC(=S)C1(C)C,IIIB,,syncytia,0.014 µM
O=C1N(Cc2ccccc2)c2cscc2S(=O)(=O)N1Cc1ccccc1,,RT-V106A,syncytia,≥10.4 µM
CCOCn1c(Cc2ccccc2)c(C(C)C)c(=O)[nH]c1=O,C-1 (RT-K101E),RT-K101E,cytopathic effect,0.0082 µg/mL
CC(C)=CCN1Cc2cc(Cl)cc3[nH]c(=S)n(c23)C[C@@H]1C,TIBO-1(RT-L100I),RT-L100I,syncytia,5.6 µM
Nc1ccn([C@H]2CC[C@@H](CO)O2)c(=O)n1,IIIB,,syncytia,0.05 µM
CCc1cc(NCc2nc3c(Cl)ccc(Cl)c3o2)c(=O)[nH]c1C,Pyr/BHAP(RT-Y181I),RT-Y181I,syncytia,>30 µM
COc1ccc2c(c1)N(C(=O)OC(C)C)[C@@H](CSC)C(=S)N2,IIIB,,p24,0.001 µg/mL
Cc1ccnc2c1NC(=O)c1cccnc1N2C1CC1,IIIB,RT-V179D,cytopathic effect,0.25 µg/mL
CC(C)Nc1cccnc1N1CCN(C(=O)c2cc3ccccc3[nH]2)CC1,IIIB,RT-E138K,syncytia,0.18 µM
Cc1ccnc2c1NC(=O)c1cccnc1N2C1CC1,IIIB-BHAP)(0.1)(RT-L100I,RT-L100I,syncytia,0.05 µg/mL
CC(C)=CCOc1cc(NC(=S)c2ccoc2C)ccc1Cl,P-1 (RT-K103N Y144F),RT-K103N Y144F,cytopathic effect,0.05 µg/mL
N#CCN1C(=O)N(Cc2ccccc2)S(=O)(=O)c2cscc21,,RT-V106A,syncytia,156 µM
CCn1c(=O)c(C)cn([C@@H]2O[C@H](CO[Si](C)(C)C(C)(C)C)C3(OS(=O)(=O)C=C3N)[C@H]2O[Si](C)(C)C(C)(C)C)c1=O,IIIB,RT-C181I,syncytia,>75 µM
Nc1ncnc2c1ncn2CCOCP(=O)(O)O,IIIB TIBO R82150-resistant (RT L100I),RT-L100I,syncytia,15 µM
c1ccc(C2OCc3nc4ccccc4n32)cc1,TSAO-resistant (RT E138K),RT-E138K,cytopathic effect / MTT,>3.4 µM
Cc1occc1C(=S)Nc1ccc(Cl)c(/C=N/OC(C)(C)C)c1,IIIB,RT-E138K,cytopathic effect,0.05 µg/mL
Cc1cn([C@@H]2O[C@H](CO[Si](C)(C)C(C)(C)C)[C@@]3(OS(=O)(=O)C=C3N)[C@H]2O[Si](C)(C)C(C)(C)C)c(=O)[nH]c1=O,IIIB,,syncytia,0.03 µM

Repeating the final 6 entries:

smiles | strain or isolate | changes | method | result
N#CCN1C(=O)N(Cc2ccccc2)S(=O)(=O)c2cscc21 |  | RT-V106A | syncytia | 156 µM
CCn1c(=O)c(C)cn([C@@H]2O[C@H](CO[Si](C)(C)C(C)(C)C)C3(OS(=O)(=O)C=C3N)[C@H]2O[Si](C)(C)C(C)(C)C)c1=O | IIIB | RT-C181I | syncytia | >75 µM
Nc1ncnc2c1ncn2CCOCP(=O)(O)O | IIIB TIBO R82150-resistant (RT L100I) | RT-L100I | syncytia | 15 µM
c1ccc(C2OCc3nc4ccccc4n32)cc1 | TSAO-resistant (RT E138K) | RT-E138K | cytopathic effect / MTT | >3.4 µM
Cc1occc1C(=S)Nc1ccc(Cl)c(/C=N/OC(C)(C)C)c1 | IIIB | RT-E138K | cytopathic effect | 0.05 µg/mL
Cc1cn([C@@H]2O[C@H](CO[Si](C)(C)C(C)(C)C)[C@@]3(OS(=O)(=O)C=C3N)[C@H]2O[Si](C)(C)C(C)(C)C)c(=O)[nH]c1=O | IIIB |  | syncytia | 0.03 µM

ECn: concentration that inhibits the pathogen or its effect by n%. Rows are shuffled and stem from different studies.